Earlier results on 1 substance are cited in patent US20230201290A1, “TGF-BETA INHIBITION, AGENTS AND COMPOSITION THEREFOR” (GMP BIOTECHNOLOGY LIMITED, priority 2020, published 2023).

The subject of this series is SARS-CoV replicon. Particulars: cited from earlier work.

As for IFN-β 1a: interferon, the “reduction of luciferase activity” value is 46%.
